Source: paper PMC9638930, “Structural basis of flagellar motility regulation by the MogR repressor and the GmaR antirepressor in Listeria monocytogenes” (Nucleic Acids Research, 2022)

Chains of the proteins cited; added tags and fusions are not shown. Lines headed by an entry give the natural chain unless they say otherwise; changes in a name come on top.
UniProt P0DJO8: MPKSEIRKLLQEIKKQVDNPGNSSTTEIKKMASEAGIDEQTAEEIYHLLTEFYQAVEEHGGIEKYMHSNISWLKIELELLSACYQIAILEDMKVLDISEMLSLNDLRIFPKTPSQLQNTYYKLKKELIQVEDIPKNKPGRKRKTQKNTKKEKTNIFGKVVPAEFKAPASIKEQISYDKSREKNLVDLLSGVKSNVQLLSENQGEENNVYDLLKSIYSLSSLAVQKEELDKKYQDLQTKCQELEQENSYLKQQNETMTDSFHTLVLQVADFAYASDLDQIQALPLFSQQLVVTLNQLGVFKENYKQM

Legend:
[1] = molecular target: MogRD34ins 34-residue,insertion,between,sites,MIG,1 (Listeria monocytogenes) (UniProt P0DJO8); assay: FP; settings: 20 mM Hepes pH 7.4, 150 mM NaCl, 5 mM bME; FP room temperature with 1 nM dsDNA; recombinant protein; residues 1-162
[2] = molecular target: MogRD19ins 19-residue,insertion,between,sites,MIG,1 (Listeria monocytogenes) (UniProt P0DJO8); assay: FP; settings: 20 mM Hepes pH 7.4, 150 mM NaCl, 5 mM bME; FP room temperature with 1 nM dsDNA; recombinant protein; residues 1-162
[3] = molecular target: MogRD49ins 49-residue,insertion,between,sites,MIG,1 (Listeria monocytogenes) (UniProt P0DJO8); assay: FP; settings: 20 mM Hepes pH 7.4, 150 mM NaCl, 5 mM bME; FP room temperature with 1 nM dsDNA; recombinant protein; residues 1-162
[4] = tested on: MogRD34ins + GmaRFL 34-residue,insertion,between,sites,MIG,1; assay: EMSA; settings: heterotrimeric complex with GmaRFL; 20 mM Hepes pH 7.4, 150 mM NaCl, 5 mM bME; EMSA 18 C 30 min (GmaR inhibition assays at room temperature, 10 min, 2:1 MogR:dsDNA); recombinant protein; label: none (ethidium bromide stain)
[5] = tested on: MogRD19ins + GmaRFL 19-residue,insertion,between,sites,MIG,1; assay: EMSA; settings: heterotrimeric complex with GmaRFL; 20 mM Hepes pH 7.4, 150 mM NaCl, 5 mM bME; EMSA 18 C 30 min (GmaR inhibition assays at room temperature, 10 min, 2:1 MogR:dsDNA); recombinant protein; label: none (ethidium bromide stain)
[6] = tested on: MogRD49ins + GmaRFL 49-residue,insertion,between,sites,MIG,1; assay: EMSA; settings: heterotrimeric complex with GmaRFL; 20 mM Hepes pH 7.4, 150 mM NaCl, 5 mM bME; EMSA 18 C 30 min (GmaR inhibition assays at room temperature, 10 min, 2:1 MogR:dsDNA); recombinant protein; label: none (ethidium bromide stain)

Measured: binding result

ATTTGATTTTTTAAAAAAATGAAGA (double strand) [operator dsDNA, fluorescein-labeled]
binds: [1] | [2] | [3]

ATTTGATTTTTTAAAAAAATGAAGA (double strand) [operator dsDNA, unlabeled]
binds: [4] | [5] | [6]

Construct, isoform or probe ends are uncertain for at least one entry. For part of these data: At least one verdict was read from the data and is not stated in words by the source.
